# Assays:
# Experiment in all cases: radioligand binding
# [1] = target: homomeric α10χW55T receptor (rat | mouse)
# [2] = target: homomeric α10χ receptor (chimeric subunit: extracellular domain of rat α10 fused to the C-terminal d (rat | mouse))
# [3] = target: heteromeric α9χα10χY190T receptor (rat | mouse)
# [4] = target: heteromeric α9χY190Tα10χ receptor (rat | mouse)
# [5] = target: heteromeric α9χα10χ receptor (wild-type chimeric subunits coexpressed) (rat | mouse)
substance,measurement,setting,value
[^3H]-α-bungarotoxin (from UniProt P60615 22-95) (ligand),specific binding,[1],2.5 fmol/mg
same,specific binding,[2],1.4 fmol/mg
same,fold lower specific binding than wild-type α9χα10χ,[3],4 fold
same,fold higher specific binding than homomeric α10χ,[4],4 fold
same,fold lower specific binding than wild-type α9χα10χ,[4],6 fold
same,fold higher specific binding than α9χ expressed alone,[5],6 fold

# Source: PMC5325082 (Molecular Pharmacology, 2017)
